Measured values published in patent US20090074766A1, “Methods of inhibiting HIV-2 infection” (priority 2007, published 2009).

By UniProt entry, the sequences of proteins in these tests, tags left out.
UniProt P51681, whole entry: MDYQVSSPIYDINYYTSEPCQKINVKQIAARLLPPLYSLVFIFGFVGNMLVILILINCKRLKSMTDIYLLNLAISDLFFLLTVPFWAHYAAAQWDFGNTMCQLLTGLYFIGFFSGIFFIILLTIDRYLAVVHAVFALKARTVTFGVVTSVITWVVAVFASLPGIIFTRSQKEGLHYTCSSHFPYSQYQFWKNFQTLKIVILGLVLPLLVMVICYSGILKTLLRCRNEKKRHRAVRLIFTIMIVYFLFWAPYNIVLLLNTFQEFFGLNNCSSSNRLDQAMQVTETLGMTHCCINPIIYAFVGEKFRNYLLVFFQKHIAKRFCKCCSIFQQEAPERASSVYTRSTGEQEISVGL

What was measured:
[1] = target: T1, CCR5 (Homo sapiens, UniProt P51681); assay: Competition binding: inhibition of PRO 140-PE binding to CEM.NKR-CCR5 cells (flow cytometry); details: based on MFI data; 5 nM PRO 140-PE
T1 construct: host or cells: CEM.NKR-CCR5 (transduced human T cell leukemia line)
Procedure: Cells were washed and then analyzed by flow cytometry for both the mean fluorescence intensity (MFI) of binding and the percent of cells gated for positive binding of PRO 140-PE. Inhibition was assessed on the basis of both MFI (A) and percent cells gated (B).
Azide was added to block CCR5 internalization during the assay. Cells were washed in PBSA and incubated with 5 nM PRO 140-PE for an additional 30 minutes prior to washing and analysis by flow cytometry using a FACSCalibur instrument (Becton Dickinson). The extent of PRO 140-PE binding was measured in terms of both the mean fluorescence intensity (MFI) and the percent of cells gated for positive staining.

[2] = target: HIV-1JR-FL envelope-mediated membrane fusion (HeLa-EnvJRFL and CEM NKR-CCR5 cells) (Homo sapiens, UniProt P51681); details: labelled 1st inhibitor with 2nd inhibitor PRO 140, equimolar; mean ± SD of 4-12 assays

B1: PRO 140: humanized IgG4,κ anti-CCR5 monoclonal antibody, humanized version of murine mAb PA14 (antibody, chains of the INN, looked up, V domains shown)
VH: EVQLVESGGGLVKPGGSLRLSCAASGYTFSNYWIGWVRQAPGKGLEWIGDIYPGGNYIRNNEKFKDKTTLSADTSKNTAYLQMNSLKTEDTAVYYCGSSFGSNYVFAWFTYWGQGTLVTVSS
VL: DIVMTQSPLSLPVTPGEPASISCRSSQRLLSSYGHTYLHWYLQKPGQSPQLLIYEVSNRFSGVPDRFSGSGSGTDFTLKISRVEAEDVGVYYCSQSTHVPLTFGQGTKVEIK
EC50 [1]: 2.5 nM | CI90 [2]: 0.97
